# Experimental data taken from US20250134946A1 (GEL4MED, INC., priority 2021, published 2025).
# Test system: decorin
# Assay: ChaseABC release from peptide hydrogels, bioactivity on decorin (FIGS. 6B, 15)
# Conditions: 5-day period
# Text: The protein was not degraded.
# In addition to release and retention rates, in analogous experiments the released and retained ChaseABC enzyme will also be assayed for bioactivity. Activity will be assessed through the efficacy of the sample to digest the small proteoglycan decorin as described previously.
# Importantly, the protein was not degraded.
substance,measurement,setting,value
chondroitinase ABC [ChaseABC],degradation of the released protein,,not degraded
same,release from peptide hydrogels,two different types of peptide hydrogels,released differentially
